# According to paper PMC12037509:
# Tested on: C[C@@H]1O[C@@H]1P(=O)(O)O
# Test: purified protein
# Conditions: co-substrate GSH (10 mM stock, 10 μL in 100 μL mix), MnCl2, KCl, Tris-HCl, 37 °C, 5 min
substance,measurement,value
FosC3 (Aeromonas caviae; Q3H),Km,70.99 ± 4.31 µM
